The record followed here is patent US20190002429A1, “Derivatives of Xanthone Compounds” (Agency for Science, Technology and Research, priority 2011, published 2019).

The test system of this data set is Mycobacterium tuberculosis. Conditions: HC50 / MIC100 against M. tuberculosis.

In turn, `COc1c(O)cc2oc3cc(OCC(=O)O)c(CC=C(C)C)c(O)c3c(=O)c2c1CC=C(C)C` [AM-071] came in with a Selectivity index of 0.28.
